Measured values from several laboratories, pooled; numbers as filed in NIAID ChemDB.

All rows: growth or infection tests; species: HIV-1; cells: MT-4; endpoint: EC50

a–b is a range or a potency band. ECn is the concentration giving n% inhibition of infection, replication or growth. Lines come from different laboratories, so protocols vary. Blank or dashed fields: not listed here.

smiles	strain	mutations	read by	value
CN[C@H]1CO[C@@H]2OCC[C@H](OC(=O)N[C@@H](Cc3cccc(OC)c3)[C@H](O)CN(CC(C)C)S(=O)(=O)c3ccc4nc(NC(C)C)sc4c3)[C@@H]21	NL4-3	L10I L33I M36I M46I I54V K55R I62V L63P A71V G73S V82T L90M I93L	p24 / luminescence	0.024 µM
Cc1c(Sc2ccccc2)n(COCc2ccccc2)c(=O)[nH]c1=O	-	-	cytopathic effect	0.093 µM
S=C(NCCc1ccccn1)Nc1ccc(Br)cn1	IIIB	-	cytopathic effect / XTT	0.02 µM
COC(=O)[C@H](CCSC)NC(=O)COc1ccc2ccccc2c1	IIIB	-	cytopathic effect / MTT	>100 µg/mL
CS(=O)(=O)c1ccc(OP(=O)(OC[C@@H]2C=C[C@H](n3cnc4c(=O)[nH]cnc43)O2)OC[C@@H]2C=C[C@H](n3cnc4c(=O)[nH]cnc43)O2)cc1	IIIB	-	cytopathic effect / trypan blue	>250 µM
C[C@H](Cn1cnc2c(N)ncnc21)OCP(=O)(O)O	NL4-3	-	-	5.2–7.4 µM
Cc1cn([C@@H]2O[C@@H](CO)[C@@H](F)[C@H]2O)c(=O)[nH]c1=O	IIIB	-	MTT / syncytia	>1000 µM
Cc1cn([C@H]2C[C@H](N=[N+]=[N-])[C@@H](CO)O2)c(=O)[nH]c1=O	22(RT-L100I Y188H)	RT-L100I Y188H	cytopathic effect / XTT	0.004 µM
CC(C)=CCN1Cc2cc(Cl)cc3[nH]c(=S)n(c23)C[C@@H]1C	-	-	cytopathic effect / MTT	0.005 µg/mL
Cc1cn([C@H]2C[C@H](F)[C@H](CO)O2)c(=O)[nH]c1=O	IIIB	-	MTT / syncytia	>1000 µM
Cc1nnc(C[C@H](C[C@H](O)CN2CCN(C(C)(C)c3ncc(-c4ccc(F)cc4)o3)C[C@H]2C(=O)NCC(F)(F)F)C(=O)N[C@H]2c3ccccc3OC[C@H]2O)o1	V-18 Clinical isolate	PR-L10I M36I N37D M46I R57K L63P A71V G73S I84V L90M I93L	p24	<0.063 µM
COC(=O)N[C@H](C(=O)N[C@@H](Cc1ccccc1)[C@@H](O)CN(Cc1ccc(-c2ccccn2)cc1)NC(=O)[C@@H](NC(=O)OC)C(C)(C)C)C(C)(C)C	NL4-3	L10I I54V K20R L24I V32I L33F M36I M46I I54M L63P K70Q V82I I84V L89M	p24 / luminescence	>1 µM
Nc1nc(Cl)nc2c1ncn2[C@@H]1C[C@@H](F)[C@H](CO)O1	-	-	cytopathic effect / MTT	>10 µM
Cc1cn([C@@H]2O[C@@H](CO)C[C@@H]2O)c(=O)[nH]c1=O	IIIB	-	MTT / syncytia	>1000 µM
COC(=O)[C@H](Cc1ccc(O)cc1)NC(=O)COc1ccc2ccccc2c1	IIIB	-	cytopathic effect / MTT	>65 µg/mL
O=C(N[C@H]1c2ccccc2C[C@H]1O)[C@@H](C[C@@H](O)[C@@H](OCc1ccccc1)C(=O)N[C@H]1c2ccccc2C[C@H]1O)OCc1ccccc1	-	-	cytopathic effect / XTT	1.4 µM
CS(=O)(=O)c1ccc(OP(=O)(OC[C@@H]2CC[C@H](n3ccc(=O)[nH]c3=O)O2)OC[C@@H]2CC[C@H](n3ccc(=O)[nH]c3=O)O2)cc1	IIIB	-	cytopathic effect / trypan blue	>250 µM
COc1cc(OC)cc(Sc2c(C3CC3)c(=O)[nH]c(=O)n2COCc2ccccc2)c1	-	K103N	MTT	29.74 µM
COC(=O)[C@H](CO)NC(=O)COc1ccc2ccccc2c1	IIIB	-	cytopathic effect / MTT	>100 µg/mL
Cc1cn([C@H]2C[C@H](N=[N+]=[N-])[C@@H](CO)O2)c(=O)[nH]c1=O	IIIB	-	cytopathic effect / p24 / trypan blue	0.014 µM
Cc1c(SC2CCCCC2)n(COCCO)c(=O)[nH]c1=O	-	-	cytopathic effect	7.7 µM
CC(=O)SCCOP(=O)(OCCSC(C)=O)OC[C@@H]1CC[C@H](n2cnc3c(=O)[nH]cnc32)O1	LAI	-	RT activity	3.4 µM
O=c1ccn([C@H]2C=C[C@@H](CO)O2)c(=O)[nH]1	IIIB	-	cytopathic effect / trypan blue	>20 µM
S=C(NCCc1ccccn1)Nc1ccc(Cl)cn1	IIIB	-	cytopathic effect	0.017 µM
CC(C)=CCN1Cc2cccc3[nH]c(=S)n(c23)C[C@@H]1C	-	-	cytopathic effect / MTT	0.008 µg/mL
CC(=O)SCCOP(=O)(OCCSC(C)=O)OC[C@H]1O[C@@H](n2cc(C)c(=O)[nH]c2=O)C[C@@H]1N=[N+]=[N-]	LAI	-	RT activity	0.018 µM
CCc1csc(NC(=S)NCCc2c(F)cccc2F)n1	IIIB	-	cytopathic effect	0.03 µM
C=O.Cc1cn(C2CC(N(N)N)C(OP(N)(=O)OCC3OC(n4ccc(N)nc4=O)CS3)O2)c(=O)[nH]c1=O	-	-	-	0.003 µM
Cc1cn([C@H]2C[C@H](N=[N+]=[N-])[C@@H](CO)O2)c(=O)[nH]c1=O	NL4-3	-	MTT	0.056 µM
Cc1ccnc2c1NC(=O)c1cccnc1N2C1CC1	T3-16(RT-Y181C)	RT-Y181C	cytopathic effect / XTT	15.5 µM
Nc1ccn([C@H]2C=C[C@@H](CO)O2)c(=O)n1	IIIB	-	cytopathic effect / trypan blue	0.6 µM
CNC(=O)[C@@H](NC(=O)[C@H](OCc1ccccc1)[C@H](O)[C@@H](O)[C@@H](OCc1ccccc1)C(=O)N[C@H](C(=O)NC)C(C)C)C(C)C	-	-	-	1.3 µM
Cc1ccnc2c1NC(=O)c1cccnc1N2C1CC1	-	RT-K70R K101E	-	<3 µM
CC(C)=CCN1Cc2cccc3[nH]c(=S)n(c23)[C@@H](C)[C@@H]1C	-	-	cytopathic effect / MTT	≤0.028 µg/mL
C[C@H](NC(=O)COc1ccc2ccccc2c1)C(=O)NN	IIIB	-	cytopathic effect / MTT	>46 µg/mL
CC(C)=CCN1Cc2cc(Cl)cc3[nH]c(=S)n(c23)C[C@@H]1C	IIIB	-	cytopathic effect / XTT	0.28 µM
NNC(=O)[C@H](CO)NC(=O)COc1ccc2ccccc2c1	IIIB	-	cytopathic effect / MTT	>100 µg/mL
O=C(N[C@H]1c2ccccc2C[C@H]1O)[C@H](CCc1ccccc1)[C@H](O)[C@H](O)[C@@H](CCc1ccccc1)C(=O)NC1c2ccccc2C[C@H]1O	-	-	cytopathic effect / XTT	>10 µM
COc1ccc(S(=O)(=O)N(CC(C)C)C[C@@H](O)[C@H](Cc2ccccc2)NC(=O)O[C@H]2CCO[C@H]3OC[C@H](O)[C@H]32)cc1	NL4-3	-	p24 / luminescence	0.0035 µM
Nc1nc(Cl)nc2c1ncn2[C@@H]1C=C[C@H](CO)O1	-	-	cytopathic effect / MTT	>10 µM
CC(=O)SCCOP(=O)(OCCSC(C)=O)OC[C@@H]1CC[C@H](n2ccc(=O)[nH]c2=O)O1	LAI	-	RT activity	2 µM
O=c1[nH]cnc2c1ncn2[C@H]1CC[C@@H](CO)O1	IIIB	-	cytopathic effect / trypan blue	4.9 µM
CCN1C/C(=C\c2ccc(O)c(O)c2)C(=O)/C(=C/c2ccc(O)c(O)c2)C1	-	-	cytopathic effect / MTT	>5 µM
CC(C)(c1ncc(-c2ccc(Cl)cc2)o1)N1CCN(C[C@@H](O)C[C@@H](Cc2nnc(-c3ccccc3)o2)C(=O)N[C@H]2c3ccccc3OC[C@H]2O)[C@H](C(=O)NCC(F)(F)F)C1	Q-60 Clinical isolate	PR-L10I N37S R41K M46I I54V I62V L63P A71V V77I V82A L90M I93L	p24	<0.016 µM
Fc1cccc(F)c1CCNC(=S)Nc1ccc(Cl)cn1	IIIB	-	cytopathic effect	0.002 µM
CCCCCCCCCCCC(=O)O[C@@]12C[C@@H](C)[C@]34C=C(C)[C@H](OC(=O)CCCCC)[C@@]3(O)[C@H](O)C(CO)=C[C@H](C4=O)[C@@H]1C2(C)C	-	-	cytopathic effect / MTT	0.00044 µg/mL
C=C(C#N)c1cc(C)c(Oc2ccnc(Nc3ccc(CN4CCN(S(C)(=O)=O)CC4)cc3)n2)c(C)c1	IIIB	K103N	MTT	0.0036 µM
CCCCCCCCCCCCCCCCCC(=O)O[C@H]1C(C)=C[C@]23C(=O)[C@@H](C=C(CO)[C@@H](O)[C@]12O)[C@@H]1C(C)(C)[C@]1(OC(=O)CCCCCCCCCCC)C[C@H]3C	-	-	cytopathic effect / MTT	0.34 µg/mL
CCC(=CCN1Cc2cc(Cl)cc3[nH]c(=S)n(c23)C[C@@H]1C)CC	-	-	cytopathic effect / MTT	0.006 µg/mL
CNC(=O)[C@@H](NC(=O)[C@H](CCc1ccccc1)[C@H](O)[C@@H](O)[C@@H](CCc1ccccc1)C(=O)N[C@H](C(=O)NC)C(C)C)C(C)C	-	-	cytopathic effect / XTT	1.9 µM
O=C1/C(=C/c2ccc(O)c(O)c2)CC(C(=O)O)C/C1=C\c1ccc(O)c(O)c1	-	-	cytopathic effect / MTT	>42 µM
COc1ccc(S(=O)(=O)N(CC(C)C)CC(O)C(NC(=O)O[C@H]2CCOC2)Sc2ccccc2)cc1	BRU	-	cytopathic effect	0.1–1 µM
CSCC[C@H](NC(=O)COc1ccc2ccccc2c1)C(=O)NN	IIIB	-	cytopathic effect / MTT	>100 µg/mL
CCCc1nnc(C[C@H](C[C@H](O)CN2CCN(C(C)(C)c3ncc(-c4cncc(OC)c4)o3)C[C@H]2C(=O)NCC(F)(F)F)C(=O)N[C@H]2c3ccccc3OC[C@H]2O)o1	K-60 Clinical isolate	PR-L10I M46I I54V Q58E L63P I64V V77I V82F I84V L90M I93L	p24	<0.5 µM
CC(C)CN(C[C@@H](O)[C@H](Cc1ccccc1)NC(=O)O[C@H]1CCO[C@H]2OCC[C@H]21)S(=O)(=O)c1ccc2nc(NC3CC3)sc2c1	NL4-3	L10F M46I I54V V82A	p24 / luminescence	0.052 µM
CSc1ccc(OP(=O)(OC[C@@H]2C=C[C@H](n3cnc4c(N)ncnc43)O2)OC[C@@H]2C=C[C@H](n3cnc4c(N)ncnc43)O2)cc1	IIIB	-	cytopathic effect / trypan blue	118 µM
CN1/C(=C/c2cc3[n+](c4ccccc24)CCCc2ccc4c(c2-3)-c2cccc[n+]2CCC4)Sc2ccccc21.O=S(=O)([O-])C(F)(F)F.O=S(=O)([O-])C(F)(F)F	NL4-3	-	visual reading / absorbance	0.09 µM
CCN1C/C(=C\c2ccc(O)c([N+](=O)[O-])c2)C(=O)/C(=C/c2ccc(O)c([N+](=O)[O-])c2)C1	-	-	cytopathic effect / MTT	>15 µM
CNC(=O)[C@@H](NC(=O)[C@H](OCc1ccccc1)[C@@H](O)[C@H](O)[C@@H](OCc1ccccc1)C(=O)N[C@H](C(=O)NC)C(C)C)C(C)C	-	-	cytopathic effect / XTT	24 µM
CCc1cc(NCc2nc3c(Cl)ccc(Cl)c3o2)c(=O)[nH]c1C	IIIB	-	cytopathic effect / XTT	0.1 µM
O=C1CN=C(c2ccc[nH]2)c2cc(Cl)ccc2N1	IIIB/LAI	-	p24	>9 µM
CCCCCCCCCCCC(=O)O[C@@]12C[C@@H](C)[C@]34C=C(C)[C@@H]5OC(=O)O[C@@]53[C@H](O)C(COC(=O)OC)=C[C@H](C4=O)[C@@H]1C2(C)C	-	-	cytopathic effect / MTT	0.064 µg/mL
O=C1/C(=C/c2cc(O)c(O)c(O)c2)COC/C1=C\c1cc(O)c(O)c(O)c1	-	-	cytopathic effect / MTT	34 µM
CCc1c(Sc2ccccc2)n(COCc2ccccc2)c(=O)[nH]c1=O	-	-	cytopathic effect	0.0049 µM
O=C1/C(=C/c2ccc([N+](=O)[O-])c(O)c2)CN(Cc2ccccc2)C/C1=C\c1ccc([N+](=O)[O-])c(O)c1	-	-	cytopathic effect / MTT	>3.5 µM
Cc1cc(/C=C/C#N)cc(C)c1Oc1nc(Nc2ccc(N3CCCC(NS(N)(=O)=O)C3)cc2)nc2sccc12	IIIB	F227L V106A	MTT	3.369 µM
c1cc(CN2CCCNCCNCCCNCC2)ccc1CN1CCCNCCNCCCNCC1	NL4-3	-	cytopathic effect / MTT	0.01 µM
CSc1ccc(OP(=O)(OC[C@@H]2C=C[C@H](n3cnc4c(=O)[nH]cnc43)O2)OC[C@@H]2C=C[C@H](n3cnc4c(=O)[nH]cnc43)O2)cc1	IIIB	-	cytopathic effect / trypan blue	>250 µM
CC(C)=CCN1[C@@H](C)Cn2c(=S)[nH]c3cccc(c32)[C@@H]1C	-	-	cytopathic effect / MTT	0.0048 µg/mL
CSc1ccc(OP(=O)(OC[C@@H]2C=C[C@H](n3cc(C)c(=O)[nH]c3=O)O2)OC[C@@H]2C=C[C@H](n3cc(C)c(=O)[nH]c3=O)O2)cc1	IIIB	-	cytopathic effect / trypan blue	15 µM
CCCCCCCCCCCC(=O)O[C@@]12C[C@@H](C)[C@]34C=C(C)[C@H](O)[C@@]3(O)[C@H](O)C(COC(=O)C(C)(C)C)=C[C@H](C4=O)[C@@H]1C2(C)C	-	-	cytopathic effect / MTT	0.00071 µg/mL
CCCc1nnc(C[C@H](C[C@H](O)CN2CCN(Cc3ccc(-c4ccc(Cl)cc4)o3)C[C@H]2C(=O)NCC(F)(F)F)C(=O)N[C@H]2c3ccccc3OC[C@H]2O)o1	V-18 Clinical isolate	PR-L10I M36I N37D M46I R57K L63P A71V G73S I84V L90M I93L	p24	<0.125 µM

A second listing of 8 rows from above:

smiles | strain | mutations | read by | value
CC(=O)SCCOP(=O)(OCCSC(C)=O)OC[C@@H]1CC[C@H](n2cnc3c(=O)[nH]cnc32)O1 | LAI | - | RT activity | 3.4 µM
COC(=O)[C@H](Cc1ccc(O)cc1)NC(=O)COc1ccc2ccccc2c1 | IIIB | - | cytopathic effect / MTT | >65 µg/mL
CCc1c(Sc2ccccc2)n(COCc2ccccc2)c(=O)[nH]c1=O | - | - | cytopathic effect | 0.0049 µM
CC(C)=CCN1Cc2cccc3[nH]c(=S)n(c23)[C@@H](C)[C@@H]1C | - | - | cytopathic effect / MTT | ≤0.028 µg/mL
Cc1c(Sc2ccccc2)n(COCc2ccccc2)c(=O)[nH]c1=O | - | - | cytopathic effect | 0.093 µM
CC(=O)SCCOP(=O)(OCCSC(C)=O)OC[C@H]1O[C@@H](n2cc(C)c(=O)[nH]c2=O)C[C@@H]1N=[N+]=[N-] | LAI | - | RT activity | 0.018 µM
Cc1cc(/C=C/C#N)cc(C)c1Oc1nc(Nc2ccc(N3CCCC(NS(N)(=O)=O)C3)cc2)nc2sccc12 | IIIB | F227L V106A | MTT | 3.369 µM
O=C1/C(=C/c2ccc(O)c(O)c2)CC(C(=O)O)C/C1=C\c1ccc(O)c(O)c1 | - | - | cytopathic effect / MTT | >42 µM